A mixed list of measured activities; the numbers were collected in NIAID ChemDB.

All rows: whole-cell or culture tests; organism: HIV-1; measure: fold resistance

Conditions beyond the fields shown may differ between rows.

structure | method | changes | cells | strain or isolate | result
Nc1nc(=O)n([C@@H]2CS[C@H](CO)O2)cc1F | - | RT-L74V | HT4 + HT4 LacZ-1 | 74V (RT-L74V) | 1.2
Cc1cn([C@H]2C[C@H](N=[N+]=[N-])[C@@H](CO)O2)c(=O)[nH]c1=O | p24 | RT-T215Y | PBMC | Recombinant | 0.01
N#Cc1cc2[nH]c3ccccc3c2n(-c2ccc([N+](=O)[O-])cc2)c1=O | luciferase | RT-Y188L | HeLa | NNRTI-resistant | 0.6
CCc1c(C)[nH]c(=O)c(N(C)C)c1C(=O)c1cc(Cl)cc(Cl)c1 | cytopathic effect / MTT | RT-G190A | MT-4 | - | 5.5
Nc1ccn([C@H]2CC[C@@H](CO)O2)c(=O)n1 | p24 | RT-V75I F77L F116Y Q151M | PBMC | Recombinant | 0.11
Nc1nc(=O)n([C@@H]2CS[C@H](CO)O2)cc1F | p24 | RT-M184V | PBMC | 3TC-resistant (RT M184V) Clinical isolate | 63
CCn1c(=O)c(C)cn([C@@H]2O[C@H](CO[Si](C)(C)C(C)(C)C)C3(OS(=O)(=O)C=C3N)[C@H]2O[Si](C)(C)C(C)(C)C)c1=O | cytopathic effect / MTT | RT-E138A S162C E169D T200A L214F | MT-4 | HXB2 (RT E138A S162C E169D T200A L214F) Clinical isolate | 90
COc1ccc(S(=O)(=O)N(CC(C)C)C[C@@H](O)[C@H](Cc2ccccc2)NC(=O)O[C@H]2CO[C@H]3OCC(F)(F)[C@H]32)cc1 | - | L23I E34Q K43I M46I I50L G51A L63P A71V V82A T91A ATV resistant | MT-4 | NL4-3 | 36
Nc1ccn([C@H]2CC[C@@H](CO)O2)c(=O)n1 | cytopathic effect / MTT | RT-A98S E138A | MT-4 | Recombinant mutant | 0.6
O=C1c2ccccc2C(=O)N1CCOC(=S)N(C(=O)c1ccco1)c1ccc([N+](=O)[O-])cc1 | cytopathic effect / MTT | RT-K103N Y181C | MT-4 | A17 | >12500
CC(C)CN(C[C@@H](O)[C@H](Cc1ccccc1)NC(=O)O[C@H]1CCOC1)S(=O)(=O)c1ccc(N)cc1 | - | L23I E34Q K43I M46I I50L G51A L63P A71V V82A T91A ATV resistant | MT-4 | NL4-3 | >13
CC(C)Nc1cccnc1N1CCN(C(=O)c2cc3cc(NS(C)(=O)=O)ccc3[nH]2)CC1 | cytopathic effect / MTT | RT-K103N | MT-4 | - | 39.7
Cc1cn([C@H]2C[C@H](N=[N+]=[N-])[C@@H](CO)O2)c(=O)[nH]c1=O | luciferase | RT-M41L A62V S68N G112S V118I M184V | HeLa | Recombinant | 0.1
Cc1occc1C(=S)Nc1ccc(Cl)c(/C=N/OC(C)(C)C)c1 | cytopathic effect / XTT | RT-Y181C K101E | CEM + CEM-SS | UC10-resistant (RT Y181C K101E) | >100
Cc1ccnc2c1NC(=O)c1cccnc1N2C1CC1 | cytopathic effect / XTT | RT-L74V | CEM + CEM-SS | NL4-3 | 1
Cc1cn([C@H]2C[C@H](N=[N+]=[N-])[C@@H](CO)O2)c(=O)[nH]c1=O | p24 / ELISA | RT-K65R | MT-2 | HxB2-MT 65 (RT-K65R | 1
CCc1c(Sc2ccccn2)n(COCc2ccccc2)c(=O)[nH]c1=O | cytopathic effect / XTT | RT-Y181C | CEM + CEM-SS | IIIB(N119(III)) | >333
O=C(N[C@H]1c2ccccc2OC[C@H]1O)[C@H](Cc1nnc(-c2ccccc2)o1)C[C@H](O)CN1CCN(Cc2ccc(-c3ccc(Cl)cc3)o2)C[C@H]1C(=O)NCC(F)(F)F | p24 | PR-L10I M46I I54V Q58E L63P I64V V77I V82F I84V L90M I93L | MT-4 | K-60 Clinical isolate | ≥0.51
Cc1cn([C@@H]2O[C@H](CO[Si](C)(C)C(C)(C)C)C3(OS(=O)(=O)C=C3N)[C@H]2O[Si](C)(C)C(C)(C)C)c(=O)n(C)c1=O | syncytia | RT-E138K | CEM | IIIB | >662
CC(C)Nc1cccnc1N1CCN(C(=O)c2cc3ccccc3[nH]2)CC1 | syncytia | RT-Y188H | CEM | HEPT (RT Y188H) | 22
C/C=C/c1cccc(C(=O)c2c(CC)c(C)[nH]c(=O)c2N(C)C)c1 | cytopathic effect / MTT | RT-Y188L | MT-4 | - | 796
Cc1cn([C@@H]2O[C@H](CO[Si](C)(C)C(C)(C)C)C3(OS(=O)(=O)C=C3N)[C@H]2O[Si](C)(C)C(C)(C)C)c(=O)n(C)c1=O | cytopathic effect | RT-Y181C | CEM | NNRTI-resistant | >180
C/C=C/CSc1cc(NC(=S)c2ccsc2C)ccc1Cl | cytopathic effect / XTT | RT-Y188C | CEM + CEM-SS | NL4-3 (RT Y188C) | 12
O=C1c2ccccc2C(=O)N1CCOC(=S)N(C(=O)c1ccccc1)c1ccc(Cl)cc1 | cytopathic effect / MTT | RT-K103R V179D P225H | MT-4 | IIIB | >1000
Nc1nc(NC2CC2)c2ncn([C@H]3C=C[C@@H](CO)O3)c2n1 | cytopathic effect / MTT | RT-L74V | PBMC | BRU PITT.(RT-L74V) | 2
CC(=O)c1ccc(C)cc1NC(C(N)=O)c1c(Cl)cccc1Cl | syncytia | RT-E138A S162C E169D T200A L214F | CEM | HXB2 (RT E138A S162C E169D T200A L214F) Clinical isolate | 1
O=C1c2ccccc2C(=O)N1CCOC(=S)N(C(=O)c1ccco1)c1ccc(Cl)cc1 | cytopathic effect / MTT | RT-K103N Y181C | MT-4 | A17 | >14300
O=c1[nH]cnc2c1ncn2[C@H]1CC[C@@H](CO)O1 | p24 / ELISA | RT-K65R | MT-2 | HxB2-MT 65 (RT-K65R | 8.6
CCc1c(C)[nH]c(=O)c(N(C)C)c1C(=O)c1cccc(C#N)c1 | cytopathic effect / MTT | RT-E138K | MT-4 | - | 2
Nc1ccn([C@@H]2CC[C@H](CO)O2)c(=O)n1 | - | RT-D67N K70R T215F K219Q | HT4 + HT4 LacZ-1 | RTMC (RT D67N K70R T215F K219Q) | 0.8
Nc1nc(=O)n([C@@H]2CC[C@H](CO)O2)cc1F | RT activity | RT-Y181C | CEM + CEM-SS | N119 nevirapine-resistant (RT Y181C) | 10.5
CCc1c(C)[nH]c(=O)c(N(C)C)c1C(=O)c1cccc(Br)c1 | cytopathic effect / MTT | RT-K101E K103N | MT-4 | - | 37
Cn1c2ccccc2c2c1cc(C#N)c(=O)n2-c1ccc([N+](=O)[O-])cc1 | luciferase | RT-K103N Y181C | HeLa | NNRTI-resistant | 1.2
Cc1cn([C@@H]2O[C@H](CO[Si](C)(C)C(C)(C)C)[C@@]3(OS(=O)(=O)C=C3N)[C@H]2O[Si](C)(C)C(C)(C)C)c(=O)[nH]c1=O | cytopathic effect / XTT | RT-Y181C | CEM + CEM-SS | UC040-R (RT-Y181C) | >200
CCc1c(C)[nH]c(=O)c(N(C)C)c1C(=O)c1cccc(/C(C)=C/C#N)c1 | cytopathic effect / MTT | RT-K101E K103N | MT-4 | - | 25
CC(C)(c1ncc(-c2ccc(Cl)cc2)o1)N1CCN(C[C@@H](O)C[C@@H](Cc2nnc(-c3ccccc3)o2)C(=O)N[C@H]2c3ccccc3OC[C@H]2O)[C@H](C(=O)NCC(F)(F)F)C1 | p24 | PR-L10I N37S R41K M46I I54V I62V L63P A71V V77I V82A L90M I93L | MT-4 | Q-60 Clinical isolate | ≥2
Cc1ccnc2c1NC(=O)c1cccnc1N2C1CC1 | p24 | RT-M41L L74V V106A T215Y | C8166 | HXB2 | 129
Cc1cn([C@H]2C[C@H](N=[N+]=[N-])[C@@H](CO)O2)c(=O)[nH]c1=O | p24 | RT-M41L D67N K70R T215Y K219Q | MT-4 | XM-AZT-resistant | 1150
Cc1cn([C@H]2C[C@H](N=[N+]=[N-])[C@@H](CO)O2)c(=O)[nH]c1=O | RT activity | RT-M184V | MT-4 | HXB2-D184 (RT-M184V) | 1.8
CCCc1nnc(C[C@H](C[C@H](O)CN2CCN(Cc3ccc(-c4ccc(Cl)cc4)o3)C[C@H]2C(=O)NCC(F)(F)F)C(=O)N[C@H]2c3ccccc3OC[C@H]2O)o1 | p24 | PR-L10I M36I N37D M46I R57K L63P A71V G73S I84V L90M I93L | MT-4 | V-18 Clinical isolate | ≥15.6
COc1ccc2c(c1)N(C(=O)OC(C)C)[C@@H](CSC)C(=S)N2 | cytopathic effect / MTT | RT-E138A S162C E169D T200A L214F | MT-4 | HXB2 (RT E138A S162C E169D T200A L214F) Clinical isolate | 6
Cc1cn([C@H]2C[C@H](N=[N+]=[N-])[C@@H](CO)O2)c(=O)[nH]c1=O | - | RT-A98G V106I Y181C | PBMC | BCF02 | 1
CC[C@H]1C(=O)Nc2ccc(F)cc2N1C(=O)OC(C)C | cytopathic effect | RT-V106A | CEM | NNRTI-resistant | 35.7
CC(C)=CCN1Cc2cccc3[nH]c(=S)n(c23)C[C@@H]1C | cytopathic effect / XTT | RT-K103N Y181C | CEM + CEM-SS | IIIB(A17(III)) | 166
CC(C)=CCN1Cc2cc(Cl)cc3[nH]c(=S)n(c23)C[C@@H]1C | - | RT-A98G V106I Y181C | PBMC | BCF02 | >312.5
C=C(C)OC(=O)N1c2cc(Cl)ccc2NC(=S)C1(C)C | syncytia | RT-Y181I | CEM | Pyr/BHAP(RT-Y181I) | 379
O=C1c2ccccc2C(=O)N1CCOC(=S)N(C(=O)c1cccnc1Cl)c1ccc(Cl)cc1 | cytopathic effect / MTT | RT-K103R V179D P225H | MT-4 | IIIB | >20000
CC(C)CN(C[C@@H](O)[C@H](Cc1ccccc1)NC(=O)O[C@H]1CO[C@H]2OCC(F)(F)[C@H]21)S(=O)(=O)c1ccc(N)cc1 | - | L10I G48V I54V A71V I84V L90M SQV resistant | MT-4 | NL4-3 | 13
CCc1c(C)[nH]c(=O)c(N(C)C)c1Cc1cccc(/C=C/C#N)c1 | cytopathic effect / MTT | RT-L100I K103N | MT-4 | - | 80
CCCc1nnc(C[C@H](C[C@H](O)CN2CCN(C(C)(C)c3ncc(-c4cncc(OC)c4)o3)C[C@H]2C(=O)NCC(F)(F)F)C(=O)N[C@H]2c3ccccc3OC[C@H]2O)o1 | p24 | PR-L10I N37S R41K M46I I54V I62V L63P A71V V77I V82A L90M I93L | MT-4 | Q-60 Clinical isolate | 1
CC(C)Nc1cccnc1N1CCN(C(=O)c2cc3cc(NS(C)(=O)=O)ccc3[nH]2)CC1 | syncytia | RT-V106A P225H | CEM | Quin-0.1 (RT V106A P225H) | 3.5
CCOCn1c(Cc2ccccc2)c(C(C)C)c(=O)[nH]c1=O | cytopathic effect / MTT | RT-K101E | MT-4 | - | 15.7
Cc1cn([C@@H]2O[C@H](CO[Si](C)(C)C(C)(C)C)C3(OS(=O)(=O)C=C3N)[C@H]2O[Si](C)(C)C(C)(C)C)c(=O)n(C)c1=O | syncytia | RT-G190E | CEM | MN-QUIN(RT-G190E) | 187.5
O=c1[nH]cnc2c1ncn2[C@H]1CC[C@@H](CO)O1 | p24 | RT-A62V V75I F77C F116Y Q151M | MT-4 | XM-Q151M | 7.8
CC1=C(C(=O)Nc2ccc(Cl)c(C(=O)OC(C)C)c2)SCCO1 | cytopathic effect / XTT | RT-Y181C | CEM + CEM-SS | IIIB(N119(III)) | >333
Nc1ccn([C@@H]2CO[C@H](CO)S2)c(=O)n1 | p24 | RT-V106I Y188C | C8166 | RF | 0.4
Nc1nc(NC2CC2)c2ncn([C@H]3C=C[C@@H](CO)C3)c2n1 | p24 | MDR769 | PBMC | - | 15
Cc1cn([C@H]2C[C@H](N=[N+]=[N-])[C@@H](CO)O2)c(=O)[nH]c1=O | cytopathic effect / XTT | RT-D67N K70R L100I T215Y K219Q | CEM + CEM-SS | 4XAZT/L100I (RT D67N K70R L100I T215Y K219Q) | 33.3
CCCc1cc(=O)oc2c3c(c4c(c12)OC(C)(C)C=C4)O[C@H](C)[C@@H](C)[C@@H]3O | cytopathic effect / XTT | RT-V108I | CEM + CEM-SS | IIIB(THZ-R(I)) | 16

An empty or dashed field is not shown. Fold resistance: result on the changed form divided by that on wild type.